PubChem BioAssay AID1259414 – Drosophila RNAi Screening Center – 2018

Test: 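Fly genes that alter Wolbachia amount inside host cells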 (primary screen)
Cells: Drosophila JW18 cells infected with Wolbachia
Reagent: long dsRNA against Drosophila genes, 0.25 µg dsRNA per well of a 384-well plate
Duration: 5 days
Treatment: cells persistently infected with Wolbachia before knock-down; no added drug
Detection: 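Imaged fluorescence in situ signal for Wolbachia 23S rRNA per DAPI-counted host cell, given as a robust z-score within each plate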
Reading the numbers: Wolbachia per cell robust z: higher = more Wolbachia per host cell than the plate typical
Call rule: 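Active if absolute robust z reaches 1.5 in two or more of three replicates, leaving out multi- or no-target dsRNAs, genes unexpressed in JW18 and A1 wells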
The screen tested about 24,000 reagents; shown is an unselected part of those that have a named target and a result. Over the whole deposit, about 1,210 (5%) got an active call. 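Inactive calls also include excluded dsRNAs with several or no targets, genes unexpressed in JW18, and well A1, regardless of score.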 Entries without a mark were called inactive. Names joined by + are all predicted targets of the reagent. Reagent sequences are not shown.

| target gene | dsRNA | Wolbachia per cell robust z, rep 1 | Wolbachia per cell robust z, rep 2 | Wolbachia per cell robust z, rep 3 |
| --- | --- | --- | --- | --- |
| CG10799 | DRSC06002 | -1.55 | -0.683 | 0.431 |
| Cp18 (Chorion protein 18) | DRSC11120 | -4.13 | 0.127 | -0.869 |
| chif (chiffon) | DRSC03508 | 1.67 (active) | 2.05 | 0.442 |
| Octbeta1R (Octopamine beta1 receptor) | DRSC16134 | -1.2 | -5.28 | -1.11 |
| Octbeta1R (Octopamine beta1 receptor) | DRSC30030 | 0.0614 | -1.07 | 0.742 |
| Pgam5 (Phosphoglycerate mutase 5) | DRSC18551 | -0.176 | -0.105 | 0.209 |
| Pgam5 (Phosphoglycerate mutase 5) | DRSC41382 | -0.727 | 0.475 | 0.0253 |
| moi + Tgs1 | DRSC24535 | -0.0332 | -2.33 | -0.251 |
| CG31267 | DRSC15748 | -2.81 | -7.14 | 0.0383 |
| Nil (Nilkantha) | DRSC15953 | 0.498 | 0.339 | -1.46 |
| Nil (Nilkantha) | DRSC23322 | 1.07 | 1.36 | -7.48 |
| CG33158 | DRSC09708 | 0.987 | -0.257 | -1.58 |
| CG33158 | DRSC09709 | 0.647 | 0.386 | 0.538 |
| CG33158 | DRSC10438 | -1.61 (active) | -1.6 | -1.95 |
| CG42342 | DRSC13165 | 0.728 | 1.25 | -0.219 |
| CG42342 | DRSC15010 | -4.64 (active) | 0.0585 | -5.03 |
| CG42342 | DRSC15011 | -5.67 | 0.953 | -0.229 |
| CG42342 | DRSC15012 | -0.587 | 0.491 | 0.124 |
| CG42342 | DRSC21791 | -1.44 | -1.82 | 0.685 |
| CG42342 | DRSC22861 | 0.847 | 0.297 | -0.377 |
| CG42342 | DRSC23112 | -0.864 | -0.375 | -4.51 |
| CG42342 | DRSC24200 | 1.43 | -0.648 | 1.03 |
| CG42342 | DRSC25912 | -1.24 | 0.554 | -0.362 |
| CG42342 | DRSC28157 | 0.11 | 0.854 | -0.306 |
| gas (gasoline) | DRSC04521 | -0.185 | 0.282 | -1.9 |
| brp (bruchpilot) | DRSC06245 | 1.27 | 0.583 | 0.338 |
| brp (bruchpilot) | DRSC06246 | 1.03 | 1.54 | 0.744 |
| brp (bruchpilot) | DRSC06801 | 0.338 | -0.081 | 0.438 |
| brp (bruchpilot) | DRSC21893 | -0.406 | -2.03 | -1.2 |
| brp (bruchpilot) | DRSC29170 | -0.9 (active) | -2.07 | -2.53 |
| brp (bruchpilot) | DRSC29721 | -0.0453 | 0.76 | -0.101 |
| Hdc (Histidine decarboxylase) | DRSC07439 | -1.17 | 0.037 | -2.14 |
| Hdc (Histidine decarboxylase) | DRSC25907 | -0.453 | 0.0189 | -0.09 |
| CG2202 | DRSC19841 | 1.41 | 1.84 | -0.973 |
| CG2202 | DRSC23452 | -0.19 | -0.399 | 1.42 |
| CG8272 | DRSC07134 | -0.613 | -0.374 | -8.39 |
| CG17202 | DRSC23073 | -1.17 | -3.67 | 0.379 |
| Ndae1 (Na[+]-driven anion exchanger 1) | DRSC00975 | 1.33 | 0.367 | 0.376 |
| Ndae1 (Na[+]-driven anion exchanger 1) | DRSC02770 | 0.185 | 0.22 | -0.013 |
| Uch-L5R (Uch-L5-related) | DRSC19825 | -1.03 | -0.749 | -0.835 |
| CG30096 | DRSC21744 | -0.183 | 0.64 | -0.313 |
| CG11131 | DRSC11636 | -0.213 | 0.317 | -0.839 |
| CG11131 | DRSC21736 | -1.35 | -1.48 | 0.306 |
| CG11131 | DRSC28565 | 0.491 | 0.0968 | 0.584 |
| St3 (Sulfotransferase 3) | DRSC04098 | -3.77 (active) | 0.375 | -2.93 |
| St3 (Sulfotransferase 3) | DRSC04505 | 0.656 | -7.3 | -0.545 |
| CG2493 | DRSC02707 | 0.254 | 0.283 | 0.179 |

Next part, starting with the last 6 of the part before.
| target gene | dsRNA | Wolbachia per cell robust z, rep 1 | Wolbachia per cell robust z, rep 2 | Wolbachia per cell robust z, rep 3 |
| --- | --- | --- | --- | --- |
| CG11131 | DRSC11636 | -0.213 | 0.317 | -0.839 |
| CG11131 | DRSC21736 | -1.35 | -1.48 | 0.306 |
| CG11131 | DRSC28565 | 0.491 | 0.0968 | 0.584 |
| St3 (Sulfotransferase 3) | DRSC04098 | -3.77 (active) | 0.375 | -2.93 |
| St3 (Sulfotransferase 3) | DRSC04505 | 0.656 | -7.3 | -0.545 |
| CG2493 | DRSC02707 | 0.254 | 0.283 | 0.179 |
| Coq3 (Coenzyme Q3) | DRSC03168 | 0.055 | 0.823 | 1.22 |
| ntc (nutcracker) | DRSC08166 | 0.799 | 0.571 | -0.114 |
| Crys (Crystallin) | DRSC03294 | -2.22 | -0.0574 | -1.22 |
| Crys (Crystallin) | DRSC24638 | 1.51 | 0.961 | 0.901 |
| CG8303 | DRSC07140 | -1.1 | 0.285 | 0.239 |
| H (Hairless) | DRSC16692 | 0.136 | 0.394 | -4.85 |
| H (Hairless) | DRSC26618 | 0.206 | 0.412 | 1.84 |
| RpL10Aa (Ribosomal protein L10Aa) | DRSC15518 | -0.522 | -0.43 | -3.07 |
| CG13855 | DRSC14705 | 0.975 | 0.471 | 0.938 |
| CG13855 | DRSC26677 | 0.704 | 0.339 | 1.72 |
| CG14218 | DRSC19575 | 1.53 | -0.603 | 1.29 |
| CG14218 | DRSC25424 | 0.44 | 0.112 | 1.19 |
| CG32006 | DRSC21768 | -2.04 | -1.41 | -0.462 |
| CG32006 | DRSC28120 | -0.221 | 0.499 | -0.0663 |
| Sec13 (Secretory 13) | DRSC14144 | -0.885 | 0.699 | -0.999 |
| CG31661 | DRSC00296 | -5.41 | -0.359 | -1.26 |
| CG31661 | DRSC28732 | -0.194 | -0.528 | 0.518 |
| hog | DRSC19057 | 0.456 | -0.462 | -0.128 |
| hog | DRSC26603 | 0.907 | -0.937 | -0.537 |
| Ugt35E2 (UDP-glycosyltransferase family 35 member E2) | DRSC16083 | 0.748 | 0.504 | -0.117 |
| Ugt35E2 (UDP-glycosyltransferase family 35 member E2) | DRSC27356 | 0.355 | 0.342 | 0.53 |
| CG12316 | DRSC09879 | 0.558 | 0.463 | -8.8 |
| CG12316 | DRSC27599 | -3.37 (active) | -0.574 | -1.64 |
| CG15278 | DRSC02481 | 0.148 | 0.693 | 1.41 |
| gammaTub37C (gamma-Tubulin at 37C) | DRSC03535 | 1.25 | 0.929 | 0.762 |
| gammaTub37C (gamma-Tubulin at 37C) | DRSC25835 | -1.34 | -1.98 | 0.293 |
| gammaTub37C (gamma-Tubulin at 37C) | DRSC40749 | 0.352 | 0.828 | 0.593 |
| CG4653 | DRSC19909 | 0.453 | -2.16 | 0.906 |
| CG4653 | DRSC22857 | 0.503 | -1.11 | 1.36 |
| CG4653 | DRSC24329 | 0.672 | -0.678 | -0.925 |
| Afg3l2 (AFG3 like matrix AAA peptidase subunit 2) | DRSC10657 | 0.45 | -0.574 | -1.4 |
| Afg3l2 (AFG3 like matrix AAA peptidase subunit 2) | DRSC29981 | -0.645 | 0.221 | -0.76 |
| NetA (Netrin-A) | DRSC20261 | 0.00636 | -0.121 | -0.548 |
| CG14499 | DRSC06470 | 0.0836 | -0.272 | -0.399 |
| CG13894 | DRSC23205 | 0.418 | 0.367 | 1.35 |
| CG13894 | DRSC29274 | 0.778 | 0.263 | 0.887 |
| tex | DRSC16517 | 0.419 | -0.0424 | 0.433 |
| faf (fat facets) | DRSC16942 | -4.2 | 1.03 | -0.527 |
| CG13538 | DRSC04180 | 0.255 | 0.525 | 0.325 |
| lncRNA:CR42850 (long non-coding RNA:CR42850) | DRSC00872 | 0.677 | 0.532 | -0.379 |
